Measured values published in patent publication US7714018B2, “Heterocyclic antiviral compounds” (Roche Palo Alto LLC, priority 2004, dated 2010).

Chains of the proteins cited; added tags and fusions are not shown.
UniProt P51681, whole entry: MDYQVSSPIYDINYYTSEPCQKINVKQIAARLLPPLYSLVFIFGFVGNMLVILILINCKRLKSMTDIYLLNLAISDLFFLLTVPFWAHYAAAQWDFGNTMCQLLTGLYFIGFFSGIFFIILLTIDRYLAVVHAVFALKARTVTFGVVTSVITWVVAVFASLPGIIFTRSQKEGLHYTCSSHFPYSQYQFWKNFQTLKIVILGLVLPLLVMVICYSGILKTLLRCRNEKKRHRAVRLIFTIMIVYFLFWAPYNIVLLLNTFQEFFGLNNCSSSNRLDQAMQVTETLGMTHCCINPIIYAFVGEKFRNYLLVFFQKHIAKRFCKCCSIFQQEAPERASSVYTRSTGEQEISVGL

Target: Human CCR5 receptor (Homo sapiens, UniProt P51681)
Test: Human CCR5 receptor-ligand binding assay (125I RANTES displacement)
Conditions: read-out: Binding IC50 (μM) RANTES; 0.1 nM 125I RANTES, CHO-Gα16-hCCR5 cells, RT 2 h; tested form: trifluoroacetate
From the text: Human CCR5 receptor (Genebank ID: 29169292) was cloned into mammalian expression vector, pTarget (Promega). The construct was transfected into CHO-Gα16 cells by using Fugene Reagent (Roche). Clones were selected under antibiotic pressure (G418 and Hygromycin) and sorted 4 times with a fluorescence activates cell sorter and a monoclonal antibody specific for CCR5 receptor (BD Biosciences Pharmigen, Mab 2D7, Cat. No. 555993). The clone with highest expression (100,000 copies per cell) was chosen for the binding assays.
Adherent cells in […] tissue culture flask (˜90% confluent) were harvested using 1 mM EDTA in PBS (phosphate-buffered saline) without Ca^2+ and Mg^2+. Cells were washed twice with PBS containing no Ca^2+ and Mg^2+. CHO-Gα16-hCCR5 cells were then resuspended (1×10^6/ml) in ice cold binding buffer (50 mM HEPES, 1 mM CaCl2, 5 mM MgCl2, 0.5% BSA, 0.05% NaN3, pH 7.24), pH 7.4), supplemented with freshly made 0.5% BSA and 0.05% NaN3.
Eighty μl CHO-Gα16-hCCR5 (1×10^6/ml) cells were added to 96 well plates. All dilutions were made in binding buffer (50 mM HEPES, 1 mM CaCl2, 5 mM MgCl2, 0.5% BSA, 0.05% NaN3, pH 7.24).
The plates were incubated on a cell shaker at RT for 2 h with a final concentration of 0.1 nM ^125I RANTES or ^125I MIP-1α or ^125I MIP-1β. The compound dilutions were made in PBS, 1% BSA. Total reaction volume was 100 μl per well. The test compounds were added to the cells prior to the addition of radioligand.
After incubation, the cells were harvested onto GF/C filter plates using Packard cell harvester. Filters were pretreated with 0.3% PEI/0.2% BSA for 30 min. The filter plate was washed rapidly 5 times with 25 mM HEPES, 500 mM NaCl, 1 mM CaCl2 and 5 mM MgCl2 adjusted to pH 7.1. Plates were dried in oven (70° C.) for 20 min, added with 40 μl scintillation fluid and sealed with Packard TopSeal-A. Packard Top Count was used to measure of the radioactivity for 1 min per well.
Total binding was determined with control wells added with radioisotope and buffer and the non-specific binding was determined using an excess cold RANTES to some of the control wells. Specific binding was determined by subtracting the non-specific form total binding. Results are expressed as the percentage of specific ^125I RANTES binding. IC50 values were determined using varying concentrations of the test ligand in triplicates and the data was analyzed using GraphPad Prism (GraphPad, San Diego, Calif.).

| Structure (SMILES) | IC50 [µM] |
| --- | --- |
| Cc1ccc(N(CCCN2CC3CN(C(=O)c4c(Cl)cc(S(C)(=O)=O)cc4Cl)CC3C2)C(=O)C2CCC(F)(F)CC2)cc1Cl (centres unmarked) | 0.0028 |
| O=C(N[C@@H](CCN1CC2CN(C(=O)c3cccnc3)CC2C1)c1ccccc1)C1CCCC1 (some centres unmarked) | 0.0191 |
| Cc1cccc(C)c1C(=O)N1CC2CN(CC[C@H](NC(=O)C3CCCCC3)c3ccccc3)CC2C1 (some centres unmarked) | 0.0032 |
| Cc1cc(Cl)c(C(=O)N2CC3CN(CC[C@H](NC(=O)C4CCCC4)c4ccccc4)CC3C2)c(Cl)c1 (some centres unmarked) | 0.0019 |
| Cc1ccc(N(CCCN2CC3CN(C(=O)c4c(C)ccnc4C)CC3C2)C(=O)Nc2cccc(Cl)c2)cc1Cl (centres unmarked) | 0.0022 |
| Cc1ccc(N(CCCN2CC3CN(C(=O)c4c(C)cc(=O)oc4C)CC3C2)C(=O)C2CCC(F)(F)CC2)cc1Cl (centres unmarked) | 0.0029 |
| Cc1cccc(C)c1C(=O)N1CC2CN(CC[C@H](NC(=O)CC3CCCC3)c3ccccc3)CC2C1 (some centres unmarked) | 0.0037 |
| Cc1ccc(C(=O)N[C@@H](CCN2CC3CN(C(=O)c4c(C)cccc4C)CC3C2)c2ccccc2)s1 (some centres unmarked) | 0.0028 |
